Record: PubChem BioAssay AID624099 (ICCB-Longwood, 2012)

- Aim: 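Human genes that papillomavirus E2 requires to repress the HPV18 LCR promoter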 (primary screen)
- Cells: human C33A cervical carcinoma cells (HPV-negative) stably expressing BPV1 E2 and an HPV18 LCR luciferase reporter
- Reagent: siRNA pool against human genes, 40 nM
- Time to read-out: 72 h
- Detection: 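HPV18 LCR reporter light per well, converted to plate-wise z-scores that exclude control wells, and averaged over triplicate plates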
- Reading the numbers: mean z-score and z-score: higher = stronger reporter signal, weaker E2 silencing
- Active means: 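Hit if mean z-score reaches 2 and two or more of three replicate z-scores also reach 2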
The whole screen tested about 21,000 reagents; this is a part drawn at random. Over the whole deposit, 497 (2.4%) are marked active. 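Higher z means weaker E2 silencing; only reporter increases were scored, and knock-downs that hurt cell survival may mask genuine repressor factors.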 Unmarked entries are inactive.

no.	target	PubChem SID	mean z-score	z-score, replicate A	z-score, replicate B	z-score, replicate C
1	SETD4	SID134312122	-0.29	-0.3	-0.21	-0.36
2	PEX19	SID134316856	-0.67	-0.99	-0.59	-0.44
3	DKC1	SID134317856	0.67	0.81	0.86	0.33
4	TAS2R7	SID134314667	-1.75	-1.98	-1.6	-1.69
5	TFAP2C	SID134310821	-0.52	-0.39	-0.36	-0.81
6	RPL10P14	SID134328673	1.11	0.91	0.99	1.43
7	SLC35E1	SID134312593	-0.11	-0.55	0.33	-0.1
8	GIPC3	SID134319461	-0.49	-0.36	-0.52	-0.58
9	DELE1	SID134324641	0	0	0.21	-0.2
10	ZFP30	SID134328906	-0.22	-0.5	-0.04	-0.11
11	MARCHF7	SID134312178	-0.25	-0.5	0.12	-0.37
12	SSNA1	SID134323321	-0.36	-0.38	-0.27	-0.42
13	RFLNA	SID134322579	0.4	0.45	0.35	0.39
14	ZNF852	SID134325713	0.17	0.18	0.3	0.04
15	PLIN1	SID134323373	-0.32	-0.18	-0.22	-0.56
16	PRAG1	SID56479300	0.41	0.76	0.04	0.43
17	ZNF98	SID134325912	-1.01	-0.89	-1.12	-1.02
18	CHCHD2P9	SID134328033	0.52	0.53	0.39	0.65
19	LOC401204 (retired record)	SID134327538	-0.42	-0.52	-0.52	-0.22
20	CD28	SID134316993	0.1	-0.09	0.28	0.12
21	ALPL	SID134313517	0.1	0.23	0.06	0
22	GADD45GIP1	SID134310065	-0.45	-0.45	-0.24	-0.67
23	OR4F17	SID134329890	-0.33	-0.36	-0.56	-0.08
24	CEP43	SID134322926	-1.16	-1.4	-1.01	-1.08
25	MEAF6	SID134320324	0.07	0.04	-0.05	0.22
26	DNTT	SID134314426	-1.4	-0.79	-1.59	-1.81
27	MOV10	SID134318338	-0.22	-0.15	-0.46	-0.05
28	LOC388193 (retired record)	SID134328632	-0.14	-0.19	-0.27	0.04
29	PNRC1	SID134323684	0.78	1.01	0.8	0.53
30	DNAJC1	SID134310655	1.75	1.69	1.45	2.11
31	ITPRID1	SID134323102	-2.01	-2.12	-1.9	-1.62
32	CDA	SID134316892	-0.05	0.54	-0.58	-0.1

The list goes on, starting with the last 4 of the part before.
no.	target	PubChem SID	mean z-score	z-score, replicate A	z-score, replicate B	z-score, replicate C
29	PNRC1	SID134323684	0.78	1.01	0.8	0.53
30	DNAJC1	SID134310655	1.75	1.69	1.45	2.11
31	ITPRID1	SID134323102	-2.01	-2.12	-1.9	-1.62
32	CDA	SID134316892	-0.05	0.54	-0.58	-0.1
33	ZNRF1	SID134312220	0.55	0.41	0.63	0.61
34	NTHL1	SID134314101	0.81	1.15	0.36	0.9
35	LOC403312	SID134329284	0.16	-0.05	0.4	0.14
36	BCL11B	SID134310733	1.55	1.54	1.62	1.48
37	SFRP1	SID134310544	-0.44	-0.49	-0.5	-0.32
38	DAB2	SID134313389	1.02	1.14	0.82	1.1
39	SAP30BP	SID134320809	-0.72	-0.87	-0.66	-0.63
40	ABHD17AP5	SID134317591	-0.63	-0.69	-0.71	-0.5
41	CLIC3	SID134316123	-1.07	-1.33	-0.75	-1.14
42	ADAM15	SID134310495	-0.65	-0.43	-0.85	-0.67
43	ADRB1	SID134310881	-0.24	-0.42	-0.18	-0.11
44	ROPN1L	SID56479266	1.43	1.63	1.42	1.25
45	LPAL2	SID134317206	-0.47	-0.25	-0.61	-0.54
46	F13B	SID134312832	0.24	0.37	0.05	0.28
47	RNMT	SID134323308	-0.5	-0.47	-0.43	-0.61
48	SERINC1	SID134315217	-0.49	-0.78	-0.18	-0.5
49	TRAPPC3	SID134321571	-0.49	-0.28	-0.64	-0.55
50	MRGPRF	SID134311101	0.16	0.07	-0.29	0.71
51	TMCC3	SID134318076	1.81	1.32	2.09	2.01
52	CES1P1	SID134314346	-0.35	-0.45	-0.54	-0.07
53	GLRX3	SID134323709	-0.23	-0.33	-0.15	-0.19
54	ORAI1	SID134319065	1.3	1.51	1.02	1.36
55	MPZL1	SID56479275	1.32	1.47	1.16	1.34
56	BCHE	SID134314534	-0.02	0.15	-0.12	-0.1
57	FAM20C	SID134317999	0.22	-0.1	0.23	0.52
